Patent US6680054B1 (priority 1996, dated 2004)

System: influenza A virus
Format: cell-based

## NC(=O)c1ncn([C@@H]2O[C@H](CO)[C@@H](O)[C@H]2O)n1 [Ribavirin]
  Therapeutic Index (MTC divided by ID50): >12.22-31.98
